Results as given in publication PMC3785227.

Biological target: stripped core gp120 (HIV strain YU2), displayed on yeast (HIV-1 strain YU2)
Assay: flow cytometry on cells

CD4-Fc (from UniProt P01730) (Fc fusion)
Kd: 5.6 nM
